A mixed list of measured activities; the numbers were collected in NIAID ChemDB.

Shared fields: growth or infection tests; agent: Mycobacterium avium complex; measure: MIC

An empty or dashed field is not shown. Conditions beyond the fields shown may differ between rows.

smiles	strain or isolate	result
CC1(C)S[C@@H]2[C@H](NC(=O)C(C(=O)O)c3ccccc3)C(=O)N2[C@H]1C(=O)O	31 strains	128 µg/mL
NC[C@@H]1O[C@H](O[C@H]2[C@@H](O)[C@H](O[C@@H]3[C@@H](O)[C@H](N)C[C@H](N)[C@H]3O[C@H]3O[C@H](CO)[C@@H](O)[C@H](O)[C@H]3N)O[C@@H]2CO)[C@H](N)[C@@H](O)[C@@H]1O	SK46/HIV+	6.25 µg/mL
NCC[C@H](O)C(=O)N[C@@H]1C[C@H](N)[C@@H](O[C@H]2O[C@H](CN)[C@@H](O)[C@H](O)[C@H]2O)[C@H](O)[C@H]1O[C@H]1O[C@H](CO)[C@@H](O)[C@H](N)[C@H]1O	866	5 µg/mL
CO[C@H]1/C=C/O[C@@]2(C)Oc3c(C)c(O)c4c(O)c(c(/C=N/N5CCN(C6CCCC6)CC5)c(O)c4c3C2=O)NC(=O)/C(C)=C\C=C\[C@H](C)[C@H](O)[C@@H](C)[C@@H](O)[C@@H](C)[C@H](OC(C)=O)[C@@H]1C	Serotype 8	5 µg/mL
CO[C@H]1/C=C/O[C@@]2(C)Oc3c(C)c(O)c4c(O)c(c(/C=N/N5CCN(C)CC5)c(O)c4c3C2=O)NC(=O)/C(C)=C\C=C\[C@H](C)[C@H](O)[C@@H](C)[C@@H](O)[C@@H](C)[C@H](OC(C)=O)[C@@H]1C	32 isolates	1 µg/mL
NCC[C@H](O)C(=O)N[C@@H]1C[C@H](N)[C@@H](O[C@H]2O[C@H](CN)[C@@H](O)[C@H](O)[C@H]2O)[C@H](O)[C@H]1O[C@H]1O[C@H](CO)[C@@H](O)[C@H](N)[C@H]1O	31 strains	32 µg/mL
NC1CCN(c2c(F)cc3c(=O)c(C(=O)O)cn(C4CC4)c3c2Cl)C1	101	15 µg/mL
C=CCSc1nc2ccccc2[nH]1	MY330/88	1000 µM
CO[C@H]1/C=C/O[C@@]2(C)Oc3c(C)c(O)c4c(O)c(c5c(c4c3C2=O)NC2(CCN(CC(C)C)CC2)N=5)=NC(=O)/C(C)=C\C=C\[C@H](C)[C@H](O)[C@@H](C)[C@@H](O)[C@@H](C)[C@H](OC(C)=O)[C@@H]1C	101	2 µg/mL
CCn1cc(C(=O)O)c(=O)c2cc(F)c(N3CCNCC3)nc21	CIPT 140310031	20 µg/mL
CC[C@H]1OC(=O)[C@H](C)[C@@H](O[C@H]2C[C@@](C)(OC)[C@@H](O)[C@H](C)O2)[C@H](C)[C@@H](O[C@@H]2O[C@H](C)C[C@H](N(C)C)[C@H]2O)[C@](C)(O)C[C@@H](C)CN(C)[C@H](C)[C@@H](O)[C@]1(C)O	32 isolates	5 µg/mL
CC1COc2c(N3CCN(C)CC3)c(F)cc3c(=O)c(C(=O)O)cn1c23	CIPT 14031006	<1 µg/mL
CC[C@@H](CO)NCCN[C@@H](CC)CO	101-5	1.9 µg/mL
CC[C@H]1OC(=O)[C@H](C)[C@@H](O[C@H]2C[C@@](C)(OC)[C@@H](O)[C@H](C)O2)[C@H](C)[C@@H](O[C@@H]2O[C@H](C)C[C@H](N(C)C)[C@H]2O)[C@](C)(OC)C[C@@H](C)C(=O)[C@H](C)[C@@H](O)[C@]1(C)O	32 isolates	4 µg/mL
CO[C@H]1/C=C/O[C@@]2(C)Oc3c(C)c(O)c4c(O)c(c(/C=N/N5CCN(C)CC5)c(O)c4c3C2=O)NC(=O)/C(C)=C\C=C\[C@H](C)[C@H](O)[C@@H](C)[C@@H](O)[C@@H](C)[C@H](OC(C)=O)[C@@H]1C	1295/HIV-	2 µg/mL
CC1(C)S[C@@H]2[C@H](NC(=O)[C@H](N)c3ccc(O)cc3)C(=O)N2[C@H]1C(=O)O	31 strains	16 µg/mL
NC[C@H]1O[C@H](O[C@H]2[C@H](O)[C@@H](O[C@H]3O[C@H](CO)[C@@H](O)[C@H](N)[C@H]3O)[C@H](N)C[C@@H]2N)[C@H](O)[C@@H](O)[C@@H]1O	N-961 (HIV+)	8 µg/mL
FC(F)(F)c1cc(CSc2nc3ccccc3[nH]2)cc(C(F)(F)F)c1	MY330/88	>62 µM
CN[C@@H]1[C@H](O[C@H]2[C@H](O[C@H]3[C@H](O)[C@@H](O)[C@H](N=C(N)N)[C@@H](O)[C@@H]3N=C(N)N)O[C@@H](C)[C@]2(O)C=O)O[C@@H](CO)[C@H](O)[C@H]1O	-	>3 µg/mL
CCCc1cc(C(N)=S)ccn1	32 isolates	10 µg/mL
NC[C@H]1O[C@H](O[C@H]2[C@H](O)[C@@H](O[C@H]3O[C@H](CO)[C@@H](O)[C@H](N)[C@H]3O)[C@H](N)C[C@@H]2N)[C@H](O)[C@@H](O)[C@@H]1O	ATCC 15769	50 µg/mL
CC[C@@H](CO)NCCN[C@@H](CC)CO	13011 (serotype 16)	1.6 µg/mL
NCC[C@H](O)C(=O)N[C@@H]1C[C@H](N)[C@@H](O[C@H]2O[C@H](CN)[C@@H](O)[C@H](O)[C@H]2O)[C@H](O)[C@H]1O[C@H]1O[C@H](CO)[C@@H](O)[C@H](N)[C@H]1O	536/HIV+	0.61 µg/mL
Nc1ncnc2c1ccn2[C@@H]1O[C@H](CO)[C@@H](O)[C@H]1O	32 isolates	16 µg/mL
COc1ccc(CSc2nc3ccccc3[nH]2)cc1	MY330/88	32 µM
NC[C@H]1O[C@H](O[C@H]2[C@H](O)[C@@H](O[C@H]3O[C@H](CO)[C@@H](O)[C@H](N)[C@H]3O)[C@H](N)C[C@@H]2N)[C@H](N)C[C@@H]1O	32 isolates	8 µg/mL
CO[C@H]1/C=C/O[C@@]2(C)Oc3c(C)c(O)c4c(O)c(c(/C=N/N5CCN(C)CC5)c(O)c4c3C2=O)NC(=O)/C(C)=C\C=C\[C@H](C)[C@H](O)[C@@H](C)[C@@H](O)[C@@H](C)[C@H](OC(C)=O)[C@@H]1C	CIPT 140310003 (rough)	0.1 µg/mL
CCCCCCCCOC1OC(C)C(O[C@@H]2O[C@@H]([C@H](O)CO)[C@H](O)[C@H]2O)C(O)C1O	NJ211	>128 µg/mL
N[C@@H]1CONC1=O	32 isolates	16 µg/mL
CN[C@@H]1[C@H](O[C@H]2[C@H](O[C@H]3[C@H](O)[C@@H](O)[C@H](N=C(N)N)[C@@H](O)[C@@H]3N=C(N)N)O[C@@H](C)[C@]2(O)C=O)O[C@@H](CO)[C@H](O)[C@H]1O	13034 (serotype 18)	50 µg/mL
FC(F)(F)c1ccc(CSc2nc3ccccc3[nH]2)cc1	MY330/88	>62 µM
CC1(C)S[C@@H]2[C@H](NC(=O)[C@H](N)c3ccccc3)C(=O)N2[C@H]1C(=O)O	31 strains	16 µg/mL
O=[N+]([O-])c1cc(CSc2nc3ccccc3[nH]2)cc([N+](=O)[O-])c1	MY330/88	8 µM
NC(=O)c1cnccn1	-	>5 µg/mL
CC1(C)S[C@@H]2[C@H](NC(=O)[C@H](NC(=O)N3CCNC3=O)c3ccccc3)C(=O)N2[C@H]1C(=O)O	31 strains	64 µg/mL
CC[C@H]1OC(=O)[C@H](C)[C@@H](O[C@H]2C[C@@](C)(OC)[C@@H](O)[C@H](C)O2)[C@H](C)[C@@H](O[C@@H]2O[C@H](C)C[C@H](N(C)C)[C@H]2O)[C@](C)(OC)C[C@@H](C)C(=O)[C@H](C)[C@@H](O)[C@]1(C)O	1124	2 µg/mL
O=[N+]([O-])c1ccc(CSc2nc3ccccc3[nH]2)cc1	MY330/88	16 µM
CCS(=O)(=O)c1ccc(/C=N\NC(N)=S)cc1	32 isolates	5 µg/mL
CC(C)N=c1cc2n(-c3ccc(Cl)cc3)c3ccccc3nc-2cc1Nc1ccc(Cl)cc1	1423/HIV+	0.25 µg/mL
COc1ccc(/C=N/NC(=O)c2ccncc2)cc1OC	32 isolates	10 µg/mL
CO[C@H]1/C=C/O[C@@]2(C)Oc3c(C)c(O)c4c(=O)c(c5oc6cc(N7CCN(CC(C)C)CC7)cc(=O)c6nc5c4c3=C2O)NC(=O)/C(C)=C\C=C\[C@H](C)[C@H](O)[C@@H](C)[C@@H](O)[C@@H](C)[C@H](OC(C)=O)[C@@H]1C	101	0.12 µg/mL

Repeating the final 2 entries:

smiles	strain or isolate	result
COc1ccc(/C=N/NC(=O)c2ccncc2)cc1OC	32 isolates	10 µg/mL
CO[C@H]1/C=C/O[C@@]2(C)Oc3c(C)c(O)c4c(=O)c(c5oc6cc(N7CCN(CC(C)C)CC7)cc(=O)c6nc5c4c3=C2O)NC(=O)/C(C)=C\C=C\[C@H](C)[C@H](O)[C@@H](C)[C@@H](O)[C@@H](C)[C@H](OC(C)=O)[C@@H]1C	101	0.12 µg/mL